# In PubChem BioAssay AID624483 (NMMLSC, 2012):
# The entries are a selection whose mix differs from that of the whole data set. Some salts or complexes appear as unconnected parts, following the source record. Calls of active or inactive are those of the source. No stated cut-off is given here; in the data, active means fluorescence intensity above about 16000; inconclusive means no clear call, values can overlap the other calls; inactive means below that.
# Assay: compound fluorescence in toxin protease inhibitor counterscreen, primary screen, artefact control for toxin protease inhibitor project, biochemical, multiplex microsphere, HTS (AID 624483); further: test concentration not given here
# Settings: compound autofluorescence counterscreen, microsphere flow cytometry; stronger effect = higher value
row,SMILES,fluorescence intensity
1,CP(=O)(Nc1ccccc1F)Oc1ccccc1 (stereo unspecified),inactive: 9460
2,CCc1cc(O)c([N+](=O)[O-])c(C)c1[N+](=O)[O-],inactive: 3440
3,CCOc1ccc(C2=NCC(CBr)S2)cc1 (stereo unspecified),inactive: 4530
4,O=[N+]([O-])c1cc([N+](=O)[O-])c(Nc2ccc(Cl)cc2)c([N+](=O)[O-])c1,inactive: 3860
5,O=P1(Nc2nc3ccc(Cl)cc3s2)COc2ccccc2O1 (stereo unspecified),inactive: 9140
6,CC(=O)Nc1ccc(Oc2c([N+](=O)[O-])cc([N+](=O)[O-])cc2[N+](=O)[O-])cc1,inactive: 4230
7,CC(=O)Nc1ccc([As](=O)(O)O)c(O)c1,inactive: 4720
8,COc1ccc2c(c1O)-c1c(O)c(OC)cc3c1[C@H](C2)[N+](C)(C)CC3.O=[N+]([O-])c1cc([N+](=O)[O-])c([O-])c([N+](=O)[O-])c1[O-],inactive: 4110
9,C[C@H]1OP(=O)(Oc2ccccc2)C[C@@H]2O[C@@H]21 (stereo partly specified),inactive: 3910
10,C[C@@H]1C=CCP(=O)(Oc2ccccc2)O1 (stereo partly specified),inactive: 4060
11,Cc1ccccc1CN(C)C(=O)COC(=O)C(O)(c1ccccc1)c1ccccc1,inactive: 2780
12,O=C(OCCN1CCN(CCOCc2ccccc2)CC1)C(O)(c1ccccc1)c1ccccc1,inactive: 7440
13,O=C(OC1CN2CCC1CC2)c1ccc([N+](=O)[O-])cc1 (stereo unspecified),inactive: 5880
14,COC(=O)C1(C)COP(=O)(NCc2ccccc2)OC1 (stereo unspecified),inactive: 4220
15,CC(=O)c1ccc(N2CC2c2ccncc2)cc1 (stereo unspecified),inactive: 3660
16,N#C/C(=C\c1ccc(N(CCBr)CCBr)cc1)C(N)=O,inactive: 3830
17,c1nnnn1CCn1cnnn1,inactive: 4910
18,CCOP(C)(=S)SCC(=O)NC(C)(CC)C(=O)O (stereo unspecified),inactive: 4210
19,CC(C)C(=O)NC(Sc1ccccc1)C(Cl)(Cl)Cl (stereo unspecified),inactive: 2530
20,O=P(Nc1nccs1)(c1ccccc1)c1ccccc1,inactive: 2980
21,CP(=O)(Nc1ccc(SC(F)(F)F)cc1)Oc1ccc(F)cc1 (stereo unspecified),inactive: 5760

row,SMILES,fluorescence intensity
1,O=[N+]([O-])c1cc([N+](=O)[O-])c(C(F)(F)F)c([N+](=O)[O-])c1O,inactive: 5900
2,Cc1ccccc1NP(C)(=O)Nc1ccccc1C,inactive: 4290
3,CP(=O)(Nc1ccc2c(c1)OCCO2)Oc1ccccc1 (stereo unspecified),inactive: 3070
4,COc1ccc(NP(C)(=O)Oc2ccccc2OC)cc1 (stereo unspecified),inactive: 4840
5,C[C@H]1OP(=O)(Oc2ccccc2)[C@H](O)[C@H](O)[C@H]1N=[N+]=[N-] (stereo partly specified),inactive: 3540
6,CN(C)CCOC(=O)C(O)(c1ccccc1)C1CCCCC1 (stereo unspecified),inactive: 2430
7,O=P(Nc1nc2ccccc2s1)(c1ccccc1)c1ccccc1,inactive: 5850
8,O=P(Nc1ccccn1)(c1ccc(Br)cc1)c1ccc(Br)cc1,inactive: 5090
9,CN(C)C1(CNC(=O)c2ccc(Cl)c(S(N)(=O)=O)c2)CCCCC1,inactive: 3600
10,COc1ccc(N)c([N+](=O)[O-])c1[N+](=O)[O-],inactive: 3920
11,COc1ccc(OP(C)(=O)Nc2cccc(Br)c2)cc1 (stereo unspecified),inactive: 10700
12,O=C(OC1CN2CCC1CC2)c1cccc(Cl)c1 (stereo unspecified),inactive: 5360
13,C(Cc1nn[nH]n1)Cc1nn[nH]n1,inactive: 2050
14,Nc1ccc([As](=O)(O)c2ccc([N+](=O)[O-])cc2)cc1,inactive: 4540
15,Cc1c(C(c2ccc3c(c2)OCO3)c2c(C)n(C)n(-c3ccccc3)c2=O)c(=O)n(-c2ccccc2)n1C.O=[N+]([O-])c1cc([N+](=O)[O-])c(O)c([N+](=O)[O-])c1,inactive: 4470
16,O=[N+]([O-])c1cc([N+](=O)[O-])c(NCC2CCS(=O)(=O)C2)c([N+](=O)[O-])c1 (stereo unspecified),inactive: 2060
17,Cc1cc(-c2cccc3ccccc23)c(C)cn1.O=[N+]([O-])c1cc([N+](=O)[O-])c(O)c([N+](=O)[O-])c1,inactive: 3410
18,O=[As](O)(c1ccccc1)c1ccc(O)cc1,inactive: 3180
19,O=[N+]([O-])c1ccc(O)c(/C=N/Nc2ccc([N+](=O)[O-])cc2[N+](=O)[O-])c1,inactive: 3760
20,O=[N+]([O-])c1ncn(CCn2cnc([N+](=O)[O-])n2)n1,inactive: 3500
21,CC(=O)NC(SC(=S)N(C)C)C(Cl)(Cl)Cl (stereo unspecified),inactive: 1920

row,SMILES,fluorescence intensity
1,O=[N+]([O-])c1ccc(OP2(=O)COCCO2)cc1 (stereo unspecified),inactive: 3600
2,CP(=O)(OC12CC3CC(CC(C3)C1)C2)OC12CC3CC(CC(C3)C1)C2,active: 20700
3,O=C(Nc1cc([As](=O)(O)O)ccc1O)c1ccccc1,inactive: 3900
4,CCOC(=O)c1ccc(NP(C)(=O)Oc2ccc(Cl)cc2)cc1 (stereo unspecified),inactive: 9010
5,O=P1(N(CCCl)CCCl)OCCCS1 (stereo unspecified),inactive: 4040
6,O=C(O)CNc1ccc([As](=O)(O)O)cc1,inactive: 3970
7,COC(=O)C1(C)COP(=O)(Nc2ccccc2)OC1 (stereo unspecified),inactive: 4110
8,O=[N+]([O-])c1cccc(NC2=NCC(CBr)S2)c1 (stereo unspecified),inactive: 3280
9,O=[N+]([O-])c1ncn(CCn2ncnc2[N+](=O)[O-])n1,inactive: 4670
10,CC(C)(C)C(=O)NC(Sc1ccncn1)C(Cl)(Cl)Cl (stereo unspecified),inactive: 4450
11,CCc1ccc(OP(C)(=O)Nc2cccnc2)cc1 (stereo unspecified),inactive: 4670
12,O=[N+]([O-])c1cc([N+](=O)[O-])c(CCNc2ccccc2)c([N+](=O)[O-])c1,inactive: 4300
13,CP(=O)(Oc1ccccc1)N1CCOC1=O (stereo unspecified),inactive: 5370
14,Cc1ccc(NP(=O)(Oc2ccccc2)Oc2ccccc2)nc1,inactive: 4520
15,O=C(OCCCN1CCCC1)C(O)(c1ccccc1)C1CCCCC1 (stereo unspecified),inactive: 3970
16,O=[N+]([O-])c1cccc2n[nH]nc12,inactive: 4740
17,CC(=O)N1C2C3N(C(C)=O)C1C1N(C(C)=O)C(C(N1C(C)=O)N3C(C)=O)N2C(C)=O,inactive: 3070
18,COc1ccccc1OP(C)(=O)Nc1c(C)n(C)n(-c2ccccc2)c1=O (stereo unspecified),inactive: 2860
19,COc1ccc(OP(C)(=O)Nc2ccc(Br)cc2)cc1 (stereo unspecified),inactive: 9590
